# According to patent US9975848B2, “Inhibitors of HIV-1 entry and methods of use thereof” (priority 2014, dated 2018):
# Experiments:
# JR-FL = assay: Infection by single-round luciferase viruses, HIV-1 JR-FL envelope; format: cell-based; details: read-out: JR-FL; recombinant luciferase virus, Cf2Th-CCR5-CD4 target cells, 48 h; tested form: bis-trifluoroacetate (by analogy with th)
# A-MLV = assay: Infection by single-round luciferase viruses, control A-MLV envelope; format: cell-based, amphotropic murine leukemia virus; details: read-out: A-MLV; control virus, Cf2Th-CCR5-CD4 target cells, 48 h; tested form: bis-trifluoroacetate (by analogy with th)
# AD8 = assay: Infection by single-round luciferase viruses, HIV-1 AD8 envelope; format: cell-based; details: read-out: AD8; recombinant luciferase virus, Cf2Th-CCR5-CD4 target cells, 48 h; tested form: bis-trifluoroacetate (by analogy with th)
Compound,IC50 (JR-FL) [µM],IC50 (A-MLV) [µM],IC50 (AD8) [µM]
CNCc1ccc2c(c1)C[C@@H](CNC(=N)N)[C@@H]2NC(=O)C(=O)Nc1ccc(Cl)c(F)c1,> 100,> 100,–
CNCc1ccc2c(c1)[C@@H](NC(=O)C(=O)Nc1ccc(Cl)c(F)c1)[C@H](CNC(=N)N)C2,> 100,> 100,> 100
